Compound potency records, mixed from different reports. Data source: NIAID ChemDB in PubChem.

All rows: growth or infection tests; organism: Rhinovirus; measure: EC50

Conditions beyond the fields shown may differ between rows. An empty or dashed field is not shown. ECn is the concentration giving n% inhibition of infection, replication or growth.

compound	strain or isolate	cells	method	value
Cc1c(-c2ccccc2)n(-c2ccc(F)cc2)c2ccc(C(C)C)cc2c1=O	33/1200	HELA-OHIO	cytopathic effect	0.3 µg/mL
CSc1nsc(-c2ccc(OCCOc3ccccc3)cc2)c1C#N	Serotype 59 (group B)	HELA-OHIO	cytopathic effect	>20 µM
CCOc1cnnc2cc(OCCC3CCN(c4ccc(C)nn4)CC3)ccc12	Serotype 2	MRC-5	cytopathic effect	0.19 µg/mL
CSc1nsc(-c2ccccc2)c1C#N	Serotype 29 (group B)	HELA-OHIO	cytopathic effect	>80 µM
CCO/N=C/c1ccc(OCCC2CCN(c3ccc(Cl)nn3)CC2)cc1	6360-CV41 (ICAM-1 receptor group 63)	KB	neutral red	0.013 µM
CCOC(=O)c1ccc(OCCOc2ccc(-c3snc(SC)c3C#N)cc2)cc1	Serotype 42 (group A)	HELA-OHIO	cytopathic effect	>2 µM
O=C(O)c1ccc(C2CC(=O)c3cc(Cl)ccc3O2)cc1	TYPE 1B	OHIO HELA	plaque count	>25 µM
CSc1nsc(-c2ccc(OCCOc3ccc([N+](=O)[O-])cc3)cc2)c1C#N	Serotype 39 (group B)	HELA-OHIO	cytopathic effect	0.25 µM
CO/N=C/c1cc(C)c(OCCCc2cc(C)no2)c(C)c1	TYPE 2	MRC-5	cytopathic effect / visual reading	<0.05 µg/mL
COCc1cc(CCCOc2c(Cl)cc(-c3noc(C)n3)cc2Cl)on1	Serotype 86	HeLa	cytopathic effect	0.072 µg/mL
Cn1c2ccccc2c2nnc(NCCCCCO)nc21	1059	WI-38	plaque count	45 µg/mL
CN(C)c1nc(C(F)(F)F)nc2c1ncn2Cc1ccc(S(C)(=O)=O)cc1	Serotype 18	M-HELA	plaque count	>8 µM
CCc1nc(-c2cc(C)c(OCCCc3cc(COC)no3)c(C)c2)no1	Serotype 6	HeLa	cytopathic effect	0.039 µg/mL
COCCCNc1nnc2c3ccccc3n(C)c2n1	33342	WI-38	plaque count	100 µg/mL
CC(=O)Nc1ccc(Cn2cnc3c(N(C)C)ncnc32)cc1	Serotype 1B	M-HELA	plaque count	>50 µM
Cc1ccc(Cn2cnc3c(N(C)C)nc(C(F)(F)F)nc32)cc1	TYPE 8	M-HELA	plaque count	>2.5 µM
O=c1c(O)c(-c2ccc(C3=NCCO3)cc2)oc2ccc(Cl)cc12	TYPE 1B	OHIO HELA	plaque count	12.1 µM
CS(=O)(=O)c1ccc(NCc2ccc(Cl)c(Cl)c2)nc1	TYPE 39	HeLa	cytopathic effect	5 µg/mL
CSc1nsc(-c2ccc(OCCCOc3ccc([N+](=O)[O-])cc3)cc2)c1C#N	Serotype 14 (group A)	HELA-OHIO	cytopathic effect	>1 µM
CSc1nsc(-c2ccc(O)cc2)c1C#N	Serotype 72 (group A)	HELA-OHIO	cytopathic effect	>10 µM
COC(=O)c1ccc(-c2oc3ccc(Cl)cc3c(=O)c2OC)cc1	TYPE 1B	OHIO HELA	plaque count	3.82 µM
Cc1cc(CCCOc2c(C)cc(-n3nnc(C)n3)cc2C)on1	Serotype 16		plaque count	0.075 µg/mL
CN(C)c1nc(Cl)nc2c1ncn2Cc1ccc(C#N)cc1	Serotype 1B	M-HELA	plaque count	>50 µM
COC(=O)c1cc(CCCOc2c(C)cc(-c3noc(C)n3)cc2C)on1	Serotype 1A	HeLa	cytopathic effect	0.023 µg/mL
CSc1nsc(-c2ccc(OCCCCOc3ccccc3)cc2)c1C#N	Serotype 39 (group B)	HELA-OHIO	cytopathic effect	3 µM
CN(C)c1nc(Cl)nc2c1ncn2Cc1ccc(Cl)cc1	Serotype 13	M-HELA	plaque count	>5 µM
Cn1c2ccccc2c2nnc(SCCN3CCOCC3)nc21	1059	WI-38	plaque count	4 µg/mL
COc1ccc2nc([C@@H](O)[C@@H](O)c3nc4ccc(OC)cc4[nH]3)[nH]c2c1	Serotype 42	WI-38	cytopathic effect	10 µg/mL
CSc1nsc(-c2ccc(OCc3ccccc3)cc2)c1C#N	Serotype 15 (group B)	HELA-OHIO	cytopathic effect	3 µM
COc1c(-c2ccc(C3=NCCO3)cc2)oc2ccc(Cl)cc2c1=O	TYPE 1B	OHIO HELA	plaque count	4.47 µM
CCOc1nc2ccc(OCCC3CCN(c4ccc(C)nn4)CC3)cc2o1	Serotype 14	MRC-5	cytopathic effect	0.007 µg/mL
C=CCc1nc(C)n2c(=O)[nH]cnc12	TYPE 9	WI-38	cytopathic effect	≥200 µg/mL
OCCCNc1nnc2c3ccccc3n(CCc3ccccc3)c2n1	33342	WI-38	plaque count	4 µg/mL
Cc1cc(CCCOc2c(C)cc(-c3noc(C(F)(F)F)n3)cc2C)on1	Serotype 14			<0.16 µM
Cc1cc(CCCOc2c(C)cc(-c3noc(C(F)(F)F)n3)cc2C)on1	Isolate 17	OHIO HELA-I	cytopathic effect / visual reading	>1 µg/mL
CS(=O)(=O)c1ccc(Cc2ccc(S(C)(=O)=O)cn2)cc1	TYPE 1A	HeLa	cytopathic effect	<2.5 µg/mL
Cn1c2ccccc2c2nnc(NCCCCO)nc21	HGP	WI-38	plaque count	10 µg/mL
CCCNc1nc2ccc(OCCC3CCN(c4ccc(C)nn4)CC3)cc2s1	Serotype 14	MRC-5	cytopathic effect	>0.25 µg/mL
CN(C)c1nc(C(F)(F)F)nc2c1ncn2Cc1ccc(Cl)c(NC=O)c1	Serotype 4	M-HELA	plaque count	>8 µM
Cc1cc(CCCOc2c(C)cc(-c3nnn(C)n3)cc2C)on1	Serotype 14		plaque count	0.336 µg/mL
CSc1nsc(-c2ccc(OCCOc3ccc(C#N)cc3)cc2)c1C#N	Serotype 45 (group A)	HELA-OHIO	cytopathic effect	>2 µM
Cc1nc(Cc2ccccc2)c2[nH]c(=S)[nH]c(=O)n12	TYPE 1A	WI-38	cytopathic effect	>100 µg/mL
CCOc1ccc2nc([C@H](O)[C@@H](O)c3nc4ccc(OCC)cc4[nH]3)[nH]c2c1	Serotype 1A	WI-38	cytopathic effect	1 µg/mL
CS(=O)(=O)c1ccc(Cc2ccc(Cl)c(Cl)c2)nc1	TYPE 89	HeLa	cytopathic effect	1.3 µg/mL
CCSc1nc2ccc(OCCC3CCN(c4ccc(C)nn4)CC3)cc2o1	Serotype 2	MRC-5	cytopathic effect	0.002 µg/mL
CCn1c2c(c(=O)c3cc(C(C)C)ccc31)Cc1ccccc1-2	13/353	HELA-OHIO	cytopathic effect	0.17 µg/mL
C=CCc1ncn2c(=O)[nH]c(NC(C)=O)nc12	TYPE 1A	WI-38	cytopathic effect	>200 µg/mL
CO/N=C(\C)c1ccc(OCCC2CCN(c3ccc(C)nn3)CC2)cc1	TYPE 1A	KB	cytopathic effect / visual reading	<0.0032 µg/mL
Cc1ccc(Cn2cnc3c(N(C)C)nc(C(F)(F)F)nc32)cc1C	Serotype 13	M-HELA	plaque count	>8 µM
CSc1nsc(-c2ccc(OCCCc3ccccc3)cc2)c1C#N	Serotype 29 (group B)	HELA-OHIO	cytopathic effect	>20 µM
CN(C)c1ccc(Cn2cnc3c(N(C)C)nc(C(F)(F)F)nc32)cc1	Serotype 14	M-HELA	plaque count	>8 µM
CCCn1oc2cc(OCCC3CCN(c4ccc(C)nn4)CC3)ccc2c1=O	Serotype 14	MRC-5	cytopathic effect	0.237 µg/mL
CCOC(=O)c1ccc(OCCC2CCN(c3ccc(C)nn3)CC2)cc1	Serotype 2			<0.035 µM
C=CCc1nc(C)n2c(=O)[nH]c(=S)[nH]c12	TYPE 9	WI-38	cytopathic effect	>100 µg/mL
COc1ccc2nc(C[C@@H](O)c3nc4ccc(OC)cc4[nH]3)[nH]c2c1	Serotype 42	WI-38	cytopathic effect	10 µg/mL
CS(=O)(=O)c1ccc(Cc2ccc(Br)cc2)nc1	TYPE 64	HeLa	cytopathic effect	0.6 µg/mL
COc1ccc2nc([C@@H](O)[C@H](O)c3nc4ccc(OC)cc4[nH]3)[nH]c2c1	Serotype 1A	WI-38	cytopathic effect	10 µg/mL
CSc1nc2ccc(OCCC3CCN(c4ccc(Cl)nn4)CC3)cc2o1	Serotype 14	MRC-5	cytopathic effect	0.146 µg/mL
Cc1ccc(Cc2ccc(S(C)(=O)=O)cn2)cc1	TYPE 1A	HeLa	cytopathic effect	5 µg/mL
C=CCO/N=C/c1ccc(OCCCCN2CCN(c3cccnn3)CC2)cc1	TYPE 1A	KB	cytopathic effect / visual reading	0.05 µg/mL
Cc1ccc(N2CCC(CCOc3ccc4oc(C)nc4c3)CC2)nn1	Serotype 2	MRC-5	cytopathic effect	>0.5 µg/mL
Cc1c(-c2ccccc2)n(-c2cccc(F)c2)c2ccc(C(C)C)cc2c1=O	TYPE 5	HELA-OHIO	cytopathic effect	>1 µg/mL
CN(C)c1nc(C(F)(F)F)nc2c1ncn2Cc1ccc(Cl)cc1Cl	Serotype 15	M-HELA	plaque count	>8 µM
Cc1cc(CCCCCOc2c(Cl)cc(C3=NCCO3)cc2Cl)on1	TYPE 17	HeLa	plaque count	0.18 µg/mL
CN(C)c1nc(Cl)nc2c1ncn2Cc1cccc(OCc2ccccc2)c1	Serotype 1B	M-HELA	plaque count	>50 µM
CCOC(=O)c1ccc(OCCC2CCN(c3ccc(C)nn3)CC2)cc1	Serotype 59	WI-38	cytopathic effect	<0.1 µg/mL
Cn1c2ccccc2c2nnc(NCC(C)(C)CO)nc21	2060	WI-38	plaque count	220 µg/mL
CS(=O)(=O)c1ccc(Cc2ccc(Cl)cc2)nc1	TYPE 2	HeLa	cytopathic effect	2.5 µg/mL
CN(C)c1nc(C(F)(F)F)nc2c1ncn2Cc1ccccc1	Serotype 19	M-HELA	plaque count	>8 µM
CCO/N=C/c1ccc(OCCC2CCN(c3nc(C(=O)OCC)cs3)CC2)cc1	TYPE 14	MRC-5	cytopathic effect / visual reading	0.124 µg/mL
Cn1c2ccccc2c2nnc(N3CCOCC3)nc21	1059	WI-38	plaque count	100 µg/mL
CN(C)c1nc(C(F)(F)F)nc2c1ncn2Cc1ccc(C(F)(F)F)cc1	Serotype 30	M-HELA	plaque count	>8 µM
CCOc1nc2ccc(OCCC3CCN(c4cc(C)c(C)nn4)CC3)cc2o1	Serotype 14	MRC-5	cytopathic effect	0.04 µg/mL

Repeating the first 9 entries:

compound	strain or isolate	cells	method	value
Cc1c(-c2ccccc2)n(-c2ccc(F)cc2)c2ccc(C(C)C)cc2c1=O	33/1200	HELA-OHIO	cytopathic effect	0.3 µg/mL
CSc1nsc(-c2ccc(OCCOc3ccccc3)cc2)c1C#N	Serotype 59 (group B)	HELA-OHIO	cytopathic effect	>20 µM
CCOc1cnnc2cc(OCCC3CCN(c4ccc(C)nn4)CC3)ccc12	Serotype 2	MRC-5	cytopathic effect	0.19 µg/mL
CSc1nsc(-c2ccccc2)c1C#N	Serotype 29 (group B)	HELA-OHIO	cytopathic effect	>80 µM
CCO/N=C/c1ccc(OCCC2CCN(c3ccc(Cl)nn3)CC2)cc1	6360-CV41 (ICAM-1 receptor group 63)	KB	neutral red	0.013 µM
CCOC(=O)c1ccc(OCCOc2ccc(-c3snc(SC)c3C#N)cc2)cc1	Serotype 42 (group A)	HELA-OHIO	cytopathic effect	>2 µM
O=C(O)c1ccc(C2CC(=O)c3cc(Cl)ccc3O2)cc1	TYPE 1B	OHIO HELA	plaque count	>25 µM
CSc1nsc(-c2ccc(OCCOc3ccc([N+](=O)[O-])cc3)cc2)c1C#N	Serotype 39 (group B)	HELA-OHIO	cytopathic effect	0.25 µM
CO/N=C/c1cc(C)c(OCCCc2cc(C)no2)c(C)c1	TYPE 2	MRC-5	cytopathic effect / visual reading	<0.05 µg/mL